Laboratory results reported in US20050282254.

How the values were obtained:
[1] = target: T1, Trx fused with 6/5 recognition site (construct 12)
T1 chain: LGRAGAYIFSSHHHHHHHH

[2] = target: T2, Trx fused with 10/5 recognition site (construct 8)
T2 chain: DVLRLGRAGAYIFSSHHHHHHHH

B1: Pro39 (C-terminal cysteine protease domain of Semliki Forest virus non-structural protein nsP2) (protein)
chain: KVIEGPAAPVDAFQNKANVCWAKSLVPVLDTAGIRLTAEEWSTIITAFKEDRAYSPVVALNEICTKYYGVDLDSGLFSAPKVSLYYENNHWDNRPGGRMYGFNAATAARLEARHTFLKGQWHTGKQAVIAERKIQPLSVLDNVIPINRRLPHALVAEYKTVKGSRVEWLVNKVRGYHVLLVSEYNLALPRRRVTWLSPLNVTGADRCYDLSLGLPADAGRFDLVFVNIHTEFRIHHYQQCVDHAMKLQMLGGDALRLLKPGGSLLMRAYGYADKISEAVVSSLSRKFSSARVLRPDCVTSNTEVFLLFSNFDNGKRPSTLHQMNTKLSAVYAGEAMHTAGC
cleavage specificity, MALDI-TOF mass-spectrometry [1]: cleavage specificity was also maintained for these truncates sites
cleavage specificity, MALDI-TOF mass-spectrometry [2]: cleavage specificity was also maintained for these truncates sites
